Compound potency records, mixed from different reports. Data source: NIAID ChemDB in PubChem.

Shared fields: tests in culture; organism: Candida albicans

An empty or dashed field is not shown. ECn is the concentration giving n% inhibition of infection, replication or growth. MIC50, MIC90 and the like: level of inhibition, or share of isolates inhibited. Conditions beyond the fields shown may differ between rows.

{"structure": "C[C@H]1[C@H](O)[C@@H](C)/C=C/C=C/C=C/C=C/C=C/C=C/C=C/[C@H](O[C@@H]2O[C@H](C)[C@@H](O)[C@H](N)[C@@H]2O)C[C@@H]2O[C@](O)(C[C@@H](O)C[C@@H](O)CC[C@H](O)[C@@H](O)C[C@@H](O)CC(=O)O[C@H]1C)C[C@H](O)[C@H]2C(=O)O", "strain": "Darlington", "measure": "MIC", "result": "2 µg/mL"}
{"structure": "CCCOc1ccccc1CON1C(N)=NC(N)=NC1(C)C", "measure": "MIC", "result": "60 µg/mL"}
{"structure": "Cc1c(O)cccc1C(=O)N[C@@H](CSc1ccccc1)[C@H](O)CN1C[C@H]2CCCC[C@H]2C[C@H]1C(=O)NC(C)(C)C", "strain": "I62D", "measure": "MIC", "result": "64 µg/mL"}
{"structure": "COC(=O)[C@H]1[C@@H]2C[C@@H](O[C@@H]3O[C@H](C)[C@@H](O)[C@H](N)[C@@H]3O)/C=C/C=C/C=C/C=C/C=C/C=C/C=C/[C@H](C)[C@@H](O)[C@H](C)[C@H](C)OC(=O)C[C@H](O)C[C@H](O)[C@@H](O)CC[C@H](O)C[C@H](O)C[C@](O)(C[C@@H]1O)O2", "strain": "15 isolates", "setting": "pH 6", "measure": "EC90", "read by": "broth dilution", "result": "2 µg/mL"}
{"structure": "C=C(C)CN1C[C@H](OC[C@@]23C[C@@H]4[C@H](C)CC[C@H]4[C@@]4(C=O)C[C@@H]2CC(C(C)C)[C@@]34C(=O)O)O[C@H](C)C1", "strain": "4711E", "measure": "MIC", "result": "≤0.001 µg/mL"}
{"structure": "Oc1ccc2c(c1)CCc1ccc(cc1)Oc1cc(ccc1O)CCc1cccc(O)c1-2", "strain": "CA10", "measure": "MIC80", "read by": "broth dilution", "result": "16 µg/mL"}
{"structure": "CCCCCCCCCCCCOC[n+]1cccc(NCn2nnc3ccccc32)c1", "strain": "ATCC 10231", "measure": "MIC", "result": "69.6 µM"}
{"structure": "CCC(C)CC(C)CCCCCCCCC(=O)NC1C[C@H](O)[C@@H](O)NC(=O)[C@@H]2[C@@H](O)[C@@H](C)CN2C(=O)[C@H]([C@H](O)CC(N)=O)NC(=O)[C@H](C(O)[C@H](O)c2ccc(O)cc2)NC(=O)[C@@H]2C[C@@H](O)CN2C(=O)[C@H]([C@@H](C)O)NC1=O", "strain": "MY1750", "measure": "MIC", "result": "0.25 µg/mL"}
{"structure": "CC(CCCCCCCCCON1C(N)=NC(N)=NC12CCCCC2)c1ccccc1", "measure": "MIC", "result": "30 µg/mL"}
{"structure": "CC[C@@H]([C@H](C)O)n1ncn(-c2ccc(N3CCN(c4ccc(OC[C@@H]5CO[C@@](Cn6cncn6)(c6ccc(F)cc6F)C5)cc4)CC3)cc2)c1=O", "strain": "15 isolates", "setting": "pH 5", "measure": "EC90", "read by": "broth dilution", "result": "0.03 µg/mL"}
{"structure": "COC(/C=C/c1ccccc1)=C1/C(=O)C=C(C)C1=O", "strain": "Isolate 2 azole-resistant", "measure": "MIC50", "result": "0.9 µg/mL"}
{"structure": "CCC(C)n1ncn(-c2ccc(N3CCN(c4ccc(OC[C@H]5CO[C@](Cn6cncn6)(c6ccc(Cl)cc6Cl)O5)cc4)CC3)cc2)c1=O", "strain": "Isolate CA-1", "measure": "MIC", "result": ">8 µg/mL"}
{"structure": "NC1=NC2(CCCCC2)N(OCCCCCCCCc2ccccc2)C(N)=N1", "measure": "MIC", "result": "30 µg/mL"}
{"structure": "N=C(N)c1ccc(-c2ccc(-c3ccc(C(=N)N)cc3)s2)cc1", "measure": "MIC", "result": "60 µg/mL"}
{"structure": "CCCCCCCCCCCOC[n+]1cccc(NCn2cnc3ccccc32)c1", "strain": "ATCC 10231", "measure": "MBC", "result": "70 µM"}
{"structure": "N=C(N)c1ccc2[nH]c(-c3cc4cc(C(=N)N)ccc4o3)cc2c1", "measure": "MIC", "result": "10 µg/mL"}
{"structure": "CC(Cn1ccnc1)c1ccc(Cl)cc1", "measure": "MIC", "result": ">100 µg/mL"}
{"structure": "C=C=CCN1C[C@H](OC[C@@]23C[C@@H]4[C@H](C)CC[C@H]4[C@@]4(C=O)C[C@@H]2CC(C(C)C)[C@@]34C(=O)O)O[C@H](C)C1", "strain": "16 isolates", "measure": "MIC50", "result": "0.015 µg/mL"}
{"structure": "Nc1[nH]c(=O)ncc1F", "strain": "15 isolates", "setting": "pH 4", "measure": "MIC", "read by": "broth dilution", "result": "0.125 µg/mL"}
{"structure": "C[C@@H](SC1COC(/C=C/C=C/c2ccc(C#N)cc2F)OC1)[C@](O)(Cn1cncn1)c1ccc(F)cc1F", "strain": "CAL-0013", "measure": "MIC", "result": "0.016 µg/mL"}
{"structure": "CC[C@@H]([C@H](C)O)n1ncn(-c2ccc(N3CCN(c4ccc(OC[C@@H]5CO[C@@](Cn6cncn6)(c6ccc(F)cc6F)C5)cc4)CC3)cc2)c1=O", "strain": "Isolate CA-10", "measure": "MIC", "result": ">4 µg/mL"}
{"structure": "CC(C)C1C[C@H]2C[C@]3(C=O)[C@@H]4CC[C@@H](C)[C@H]4C[C@@]2(CO[C@H]2CN(C4CC4)C[C@@H](C)O2)[C@]13C(=O)O", "strain": "16 isolates", "measure": "MIC90", "result": "0.06 µg/mL"}
{"structure": "CCCCCCCCOc1ccc(C(=O)NC2C[C@@H](O)[C@@H](O)NC(=O)C3[C@@H](O)[C@@H](C)CN3C(=O)C(C(C)O)NC(=O)C([C@H](O)[C@@H](O)c3ccc(O)cc3)NC(=O)C3C[C@@H](O)CN3C(=O)C(C(C)O)NC2=O)cc1", "strain": "MY1783", "measure": "MIC", "result": "0.5 µg/mL"}
{"structure": "C(/C=C/c1cc2cc(C3=NCCN3)ccc2o1)=C\\c1ccc(C2=NCCN2)cc1", "measure": "MIC", "result": ">60 µg/mL"}
{"structure": "CCCCC(Cn1ccnc1)c1ccc(Br)cc1", "measure": "MIC", "result": "100 µg/mL"}
{"structure": "CC(CCCCCCCON1C(N)=NC(N)=NC12CCCCC2)c1ccccc1", "measure": "MIC", "result": "19 µg/mL"}
{"structure": "CCCCCCCCOC[n+]1cccc(NCn2cnc3ccccc32)c1", "strain": "ATCC 10231", "measure": "MBC", "result": "1242 µM"}
{"structure": "C[C@H]1[C@H](O)[C@@H](C)/C=C/C=C/C=C/C=C/C=C/C=C/C=C/[C@H](O[C@@H]2O[C@H](C)[C@@H](O)[C@H](N)[C@@H]2O)C[C@@H]2O[C@](O)(C[C@@H](O)C[C@@H](O)CC[C@H](O)[C@@H](O)C[C@@H](O)CC(=O)O[C@H]1C)C[C@H](O)[C@H]2C(=O)O", "strain": "A28235", "measure": "MFC99", "result": "0.5 µg/mL"}
{"structure": "CCCCCCCCCOC[n+]1cccc(NCNc2ccc[n+](COCCCCCCCCC)c2)c1", "strain": "ATCC 10231", "measure": "MBC", "result": "27 µM"}
{"structure": "CCCCCC(Cn1ccnc1)c1ccc(Cl)cc1Cl", "measure": "MIC", "result": "10 µg/mL"}
{"structure": "C[C@H]1[C@H](O)[C@@H](C)/C=C/C=C/C=C/C=C/C=C/C=C/C=C/[C@H](O[C@@H]2O[C@H](C)[C@@H](O)[C@H](N)[C@@H]2O)C[C@@H]2O[C@](O)(C[C@@H](O)C[C@@H](O)CC[C@H](O)[C@@H](O)C[C@@H](O)CC(=O)O[C@H]1C)C[C@H](O)[C@H]2C(=O)O", "strain": "TIMM3164 (azole-resistant)", "measure": "MIC80", "result": "0.13 µg/mL"}
{"structure": "CCCCCCCCCCCOC[n+]1cccc(NCn2nnc3ccccc32)c1", "strain": "ATCC 10231", "measure": "MBC", "result": "561 µM"}
{"structure": "COc1ccc2c(Cc3ccc(C(C)(C)C)cc3)c3[n+](cc2c1OC)CCc1cc2c(cc1-3)OCO2", "strain": "ATCC64550", "measure": "MIC", "result": "6.25 µg/mL"}
{"structure": "CCC(C)CC(C)CCCCCCCCC(=O)N[C@H]1C[C@@H](O)[C@H](NCCN)NC(=O)[C@@H]2[C@@H](O)CCN2C(=O)[C@H]([C@H](O)CCN)NC(=O)[C@H]([C@H](O)[C@@H](O)c2ccc(O)cc2)NC(=O)[C@@H]2C[C@@H](O)CN2C(=O)[C@H]([C@@H](C)O)NC1=O", "strain": "10 isolates", "setting": "pH 6", "measure": "EC90", "read by": "broth dilution", "result": "0.06 µg/mL"}
{"structure": "O=C(Nc1nc2ccc(NC(=O)[C@@H]3CCC[C@H](NCc4ccc5ccccc5c4)C3)cc2s1)C1CCCC1", "strain": "ATCC 24433", "measure": "MIC", "result": "0.78 µM"}
{"structure": "CCCCCC(Cn1ccnc1)c1ccc(F)cc1", "measure": "MIC", "result": "100 µg/mL"}
{"structure": "CC(C)N=C(N)c1ccc2nc(-c3ccc4c(c3)Cc3cc(-c5nc6ccc(C(N)=NC(C)C)cc6[nH]5)ccc3-4)[nH]c2c1", "strain": "Isolate CA783", "measure": "MFC", "result": "3.12 µg/mL"}
{"structure": "N=C(N)c1ccc(-c2[nH]c3cc(C(=N)N)ccc3c2N)cc1", "measure": "MIC", "result": ">60 µg/mL"}

5 of the rows above, restated:

structure	strain	setting	measure	read by	result
Oc1ccc2c(c1)CCc1ccc(cc1)Oc1cc(ccc1O)CCc1cccc(O)c1-2	CA10		MIC80	broth dilution	16 µg/mL
CC(CCCCCCCON1C(N)=NC(N)=NC12CCCCC2)c1ccccc1			MIC		19 µg/mL
CCCCCC(Cn1ccnc1)c1ccc(F)cc1			MIC		100 µg/mL
CC[C@@H]([C@H](C)O)n1ncn(-c2ccc(N3CCN(c4ccc(OC[C@@H]5CO[C@@](Cn6cncn6)(c6ccc(F)cc6F)C5)cc4)CC3)cc2)c1=O	15 isolates	pH 5	EC90	broth dilution	0.03 µg/mL
CCCCCCCCCOC[n+]1cccc(NCNc2ccc[n+](COCCCCCCCCC)c2)c1	ATCC 10231		MBC		27 µM